Measured values from several laboratories, pooled; numbers as filed in NIAID ChemDB.

Common to all: tests in culture; agent: Herpes simplex virus 1

Two numbers with a dash give a range or band. ECn: concentration that inhibits the pathogen or its effect by n%. An empty or dashed field is not shown. Neighbouring rows are from separate reports.

| compound | read by | measure | cell line | strain | result |
|---|---|---|---|---|---|
| COc1ccc2nc3cc(Cl)ccc3c(NN3CCN(C)CC3)c2c1 | plaque count | EC50 | VERO 76 | - | >10 µM |
| Nc1ncnc2c1c(Br)cn2[C@@H]1O[C@H](CO)[C@@H](O)[C@H]1O | cytopathic effect | EC50 | PRK | KOS | ≥0.4 µg/mL |
| CCCCCC#Cc1cn(COCCO)c(=O)[nH]c1=O | plaque count | EC90 | VERO | F | >100 µM |
| Nc1ncc2c(ncn2COC(CO)CO)n1 | cytopathic effect | EC50 | HEL | KOS PFA-resistant | 0.8 µg/mL |
| COc1ccc2c(c1)COP(=O)(OC[C@@H]1C=C[C@H](n3cnc4c(NC5CC5)nc(N)nc43)C1)O2 | cytopathic effect | EC50 | E6SM | TK-deficient acyclovir-resistant | 22 µg/mL |
| Nc1ncnc2c1ncn2C[C@@H](CO)OCP(=O)(O)O | virus yield | EC90 | HeLa | PMEA-resistant-1 | 14 µM |
| O=c1[nH]c(=O)n([C@@H]2C[C@@H](O)[C@H](CO)O2)cc1/C=C/Br | plaque count | EC50 | HELA TK- | - | 0.9 µM |
| C=C=CSC[C@H]1O[C@@H](n2cnc3c(N)ncnc32)[C@H](O)[C@@H]1O | cytopathic effect | EC50 | E6SM | KOS | 250 µM |
| COc1ccc2nc3cc(Cl)ccc3c(N3CCCC(O)C3)c2c1 | plaque count | EC50 | VERO 76 | - | >45 µM |
| COc1cc([C@@H]2c3cc4c(cc3[C@H](O)[C@H]3COC(=O)[C@H]23)OCO4)cc(OC)c1OC | - | EC50 | MRC-5 | KOS | 0.011 µg/mL |
| CCCCCCCCC#Cc1cn(COCCO)c(=O)[nH]c1=O | plaque count | EC90 | VERO | F | >100 µM |
| O=C(O)c1cc(O)c(O)c(O)c1 | cytopathic effect | EC50 | E6SM | KOS | 20 µg/mL |
| Cc1cccc2c1OP(=O)(OC[C@H]1O[C@@H](n3cc(/C=C/Br)c(=O)[nH]c3=O)C[C@@H]1OC(=O)C(C)C)OC2 | plaque count | EC50 | VERO | KUPKA (TK+) | 0.43 µg/mL |
| Nc1nc(NC2CC2)c2ncn(C=C3CC3CO)c2n1 | plaque count | EC50 | VERO | - | 31 µM |
| Nc1ncnc2c1ncn2[C@@H]1O[C@H](CO)[C@@H](O)[C@@H]1O | cytopathic effect | EC50 | HEL | KOS BVDU-resistant | 13.1 µg/mL |
| O=c1[nH]c(=O)n([C@H]2C[C@H](O)[C@@H](CO)O2)cc1/C=C/Br | plaque count | EC50 | VERO | - | 0.06–0.22 µM |
| CCCCCc1ccc(-c2cc3cn(C/C=C/C(O)CO)c(=O)nc3o2)cc1 | plaque count | EC50 | VERO | F | >100 µM |
| Nc1nc2c(ncn2COCCO)c(=O)[nH]1 | plaque count | EC50 | MRC-5 | - | 2.2 µM |
| Cc1cc(O)cc(O)c1CC(=O)O | cytopathic effect | EC50 | E6SM | KOS | 40 µg/mL |
| CCOP(=O)(Oc1ccc(Cl)cc1)C(=O)Oc1ccccc1 | plaque count | EC50 | VERO | C42 | >500 µM |
| O=c1nc2oc(-c3ccccc3)cc2cn1COCCO | plaque count | EC50 | VERO | F | >100 µM |
| Cc1cn([C@H]2C[C@H](N=[N+]=[N-])[C@@H](CO)O2)c(=O)[nH]c1=O | plaque count | EC90 | VERO | F | >10 µM |
| CCCCCCCCC#Cc1cn(CC=C(CO)CO)c(=O)[nH]c1=O | plaque count | EC50 | VERO | F | >10 µM |
| Cc1cn([C@@H]2C[C@@H](O)[C@H](CO)O2)c(=O)[nH]c1=O | plaque count | EC50 | HeLa | - | 25 µM |
| COc1ccc2nc3cc(Cl)ccc3c(N3CCC(O)CC3)c2c1 | plaque count | EC50 | VERO 76 | - | >60 µM |
| Cc1cc(C)c2c(c1)COP(=O)(OC[C@H]1O[C@@H](n3cc(/C=C/Br)c(=O)[nH]c3=O)C[C@@H]1O)O2 | plaque count | EC50 | VERO | KUPKA (TK+) | 1.1 µg/mL |
| O=C(O)CP(=O)(O)O | cytopathic effect | EC50 | HEL | KOS HPMPC-resistant | 9.3 µg/mL |
| CC(C)(C)c1cccc2c1OP(=O)(OC[C@H]1O[C@@H](n3cc(/C=C/Br)c(=O)[nH]c3=O)C[C@@H]1O)OC2 | plaque count | EC50 | VERO | KUPKA (TK+) | 0.67 µg/mL |
| COC(=O)[C@H](C)NP(=O)(OCC1C/C1=C/n1cnc2c(N)ncnc21)Oc1ccccc1 | plaque count | EC50 | VERO | - | >1 µM |
| COc1cc(C2c3cc4c(cc3C[C@H]3COC(=O)[C@H]23)OCO4)cc(OC)c1OC | - | EC50 | MRC-5 | A4-3 | 0.032 µg/mL |
| Nc1nc(=O)n([C@@H]2O[C@H](CO)[C@@H](O)[C@@H]2F)cc1I | cytopathic effect | EC50 | HEL | KOS S2242-resistant | 0.007 µg/mL |
| COC(=O)[C@H](C)NP(=O)(OC[C@H]1C/C1=C/n1cnc2c(OC)nc(N)nc21)Oc1ccccc1 | ELISA | EC50 | BSC-1 | - | 2 µM |
| Cc1ccc(OC(=O)P(=O)(O)O)cc1 | plaque count | EC50 | VERO | C42 | 500 µM |
| Nc1nc2c(ncn2COCCO)c(=O)[nH]1 | plaque count | EC50 | VERO | F | 0.11 µM |
| CCCCCc1cc2cn(COCCO)c(=O)nc2o1 | plaque count | EC90 | VERO | F | 16.4 µM |
| CC(C)C(=O)O[C@H]1C[C@H](n2cc(/C=C/Br)c(=O)[nH]c2=O)O[C@@H]1COP1(=O)OCc2ccccc2O1 | plaque count | EC50 | VERO | KUPKA (TK+) | 0.61 µg/mL |
| COc1cc(C[C@H]2C(=O)OC[C@@H]2Cc2cc(OC)c3c(c2)OCO3)cc(OC)c1OC | - | EC50 | MRC-5 | KOS | >50 µg/mL |
| Nc1ccn([C@@H]2CS[C@H](CO)O2)c(=O)n1 | plaque count | EC50 | VERO | F | >100 µM |
| Nc1nc(NC2CC2)c2ncn([C@H]3C=C[C@@H](CO)C3)c2n1 | cytopathic effect | EC50 | E6SM | TK-deficient acyclovir-resistant | >40 µg/mL |
| C[C@@H](N)C(=O)O[C@H]1C[C@H](n2cc(/C=C/Br)c(=O)[nH]c2=O)O[C@@H]1COP1(=O)OCc2ccccc2O1 | plaque count | EC50 | VERO | B2006 (TK-) | >128 µg/mL |
| COC(=O)c1cn([C@@H]2C[C@H](CCP(=O)(O)O)C[C@H]2O)nn1 | plaque count | EC50 | VERO | F | >100 µM |
| Nc1nc(NC2CC2)c2ncn([C@H]3C=C[C@@H](COP4(=O)OCc5ccccc5O4)C3)c2n1 | cytopathic effect | EC50 | E6SM | KOS | 8 µg/mL |
| Cc1cn([C@@H]2O[C@H](CO)[C@@H](O)[C@@H]2O)c(=O)[nH]c1=O | cytopathic effect | EC50 | HEL | KOS ACV-resistant | 25 µg/mL |
| Nc1ncnc2c1ncn2[C@@H]1O[C@H](CO)C[C@@H]1O | cytopathic effect | EC50 | - | C137-101 (TK-) | 20 µg/mL |
| O=C(O)P(=O)(O)O | virus yield | EC90 | HeLa | PFA-resistant-1 | 900 µM |
| O=C(O)P(=O)(O)O | cytopathic effect | EC50 | U138-MG | KOS | 11.2 µg/mL |
| COc1ccc2nc3cc(Cl)ccc3c(N3CCN(CCO)CC3)c2c1 | plaque count | EC50 | VERO 76 | - | >55 µM |
| CCOC(=O)P(=O)(OCCOCn1cnc2c(=O)[nH]c(N)nc21)OC(C)C | cytopathic effect | EC50 | VERO | L2/R | 149 µM |
| CC1OP(=O)(OC[C@H]2O[C@@H](n3cc(/C=C/Br)c(=O)[nH]c3=O)C[C@@H]2O)Oc2cccc(Cl)c21 | plaque count | EC50 | VERO | KUPKA (TK+) | 0.22 µg/mL |
| Cc1cccc2c1OP(=O)(OC[C@@H]1C=C[C@H](n3cnc4c(NC5CC5)nc(N)nc43)C1)OC2 | cytopathic effect | EC50 | E6SM | TK-deficient acyclovir-resistant | 5.6 µg/mL |
| CCc1cn([C@H]2C[C@H](O)[C@@H](COP(=O)(O)C(N)=O)S2)c(=O)[nH]c1=O | cytopathic effect | EC50 | VERO | L2/R acyclovir-resistant | 52.8 µM |
| O=C(O)c1cc(O)ccc1O | cytopathic effect | EC50 | E6SM | B2006 (TK-) | 20 µg/mL |
| Nc1ccn(C[C@@H](CO)OCP(=O)(O)O)c(=O)n1 | cytopathic effect | EC50 | HEL | KOS PMEA-resistant | 0.4 µg/mL |
| COC(=O)c1cn([C@@H]2C[C@H](CO)C[C@H]2O)nn1 | plaque count | EC50 | VERO | F | >100 µM |
| COC(=O)[C@H](C)NP(=O)(OC[C@H]1C/C1=C/n1cnc2c(=O)[nH]c(N)nc21)Oc1ccccc1 | plaque count | EC50 | VERO | - | >100 µM |
| CCCCCc1ccc(-c2cc3cn(COCCO)c(=O)nc3o2)cc1 | plaque count | EC50 | VERO | F | >100 µM |
| Cc1cccc2c1OP(=O)(OC[C@H]1O[C@@H](n3cc(/C=C/Br)c(=O)[nH]c3=O)C[C@@H]1OC(=O)[C@@H](N)CC(C)C)OC2 | plaque count | EC50 | VERO | B2006 (TK-) | >128 µg/mL |
| CCCCCCCCc1cc2cn(CC=C(CO)CO)c(=O)nc2o1 | plaque count | EC50 | VERO | F | 7.3 µM |
| Cc1cccc2c1OP(=O)(OC[C@H]1O[C@@H](n3cc(/C=C/Br)c(=O)[nH]c3=O)C[C@@H]1O)OC2 | plaque count | EC50 | VERO | B2006 (TK-) | >128 µg/mL |
| Nc1ncnc2c1ncn2C[C@H](O)CO | cytopathic effect | EC50 | PRK | B2006 (TK-) | >100 µg/mL |
| Nc1nccc2c1ncn2[C@@H]1C[C@H](CO)[C@@H](O)[C@H]1O | cytopathic effect | EC50 | PRK | KOS | >400 µg/mL |
| CCCCCCCCCC(=O)O[C@H]1C[C@H](n2cc(/C=C/Br)c(=O)[nH]c2=O)O[C@@H]1COP1(=O)OCc2cccc(C)c2O1 | plaque count | EC50 | VERO | KUPKA (TK+) | 0.45 µg/mL |
| CCN(CC)CC(O)CNc1c2ccc(Cl)cc2nc2ccc(OC)cc12 | plaque count | EC50 | VERO 76 | - | >7 µM |
| Nc1nc(NC2CC2)c2ncn([C@H]3C=C[C@@H](COP4(=O)OCc5cc(Cl)ccc5O4)C3)c2n1 | cytopathic effect | EC50 | E6SM | TK-deficient acyclovir-resistant | 24 µg/mL |
| Cc1c(CC(=O)O)ccc(O)c1O | cytopathic effect | EC50 | E6SM | B2006 (TK-) | 40 µg/mL |

Repeating the final 7 entries:

| compound | read by | measure | cell line | strain | result |
|---|---|---|---|---|---|
| Cc1cccc2c1OP(=O)(OC[C@H]1O[C@@H](n3cc(/C=C/Br)c(=O)[nH]c3=O)C[C@@H]1O)OC2 | plaque count | EC50 | VERO | B2006 (TK-) | >128 µg/mL |
| Nc1ncnc2c1ncn2C[C@H](O)CO | cytopathic effect | EC50 | PRK | B2006 (TK-) | >100 µg/mL |
| Nc1nccc2c1ncn2[C@@H]1C[C@H](CO)[C@@H](O)[C@H]1O | cytopathic effect | EC50 | PRK | KOS | >400 µg/mL |
| CCCCCCCCCC(=O)O[C@H]1C[C@H](n2cc(/C=C/Br)c(=O)[nH]c2=O)O[C@@H]1COP1(=O)OCc2cccc(C)c2O1 | plaque count | EC50 | VERO | KUPKA (TK+) | 0.45 µg/mL |
| CCN(CC)CC(O)CNc1c2ccc(Cl)cc2nc2ccc(OC)cc12 | plaque count | EC50 | VERO 76 | - | >7 µM |
| Nc1nc(NC2CC2)c2ncn([C@H]3C=C[C@@H](COP4(=O)OCc5cc(Cl)ccc5O4)C3)c2n1 | cytopathic effect | EC50 | E6SM | TK-deficient acyclovir-resistant | 24 µg/mL |
| Cc1c(CC(=O)O)ccc(O)c1O | cytopathic effect | EC50 | E6SM | B2006 (TK-) | 40 µg/mL |